From paper PMC8001506 (Marine Drugs, 2021)

By UniProt entry, the sequences of proteins in these tests, tags left out. Where a name states a change or a piece, a line headed by the entry shows the natural chain unless it says otherwise. Residues count along the entry.
UniProt P04757, whole entry, looked up: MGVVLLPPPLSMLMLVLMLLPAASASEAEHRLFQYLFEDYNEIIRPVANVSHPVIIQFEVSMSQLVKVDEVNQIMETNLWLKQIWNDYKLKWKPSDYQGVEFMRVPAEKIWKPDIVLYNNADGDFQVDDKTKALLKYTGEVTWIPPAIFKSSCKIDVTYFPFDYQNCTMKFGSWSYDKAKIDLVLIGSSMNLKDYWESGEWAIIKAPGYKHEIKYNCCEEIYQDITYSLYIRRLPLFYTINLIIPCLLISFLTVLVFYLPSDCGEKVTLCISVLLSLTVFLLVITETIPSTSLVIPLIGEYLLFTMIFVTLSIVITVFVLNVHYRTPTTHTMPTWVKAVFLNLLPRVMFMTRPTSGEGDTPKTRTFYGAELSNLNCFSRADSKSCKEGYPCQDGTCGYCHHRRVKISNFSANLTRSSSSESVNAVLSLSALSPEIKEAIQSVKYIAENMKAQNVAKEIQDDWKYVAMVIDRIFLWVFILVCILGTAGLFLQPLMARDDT
UniProt P04757, 26-499 limits assumed: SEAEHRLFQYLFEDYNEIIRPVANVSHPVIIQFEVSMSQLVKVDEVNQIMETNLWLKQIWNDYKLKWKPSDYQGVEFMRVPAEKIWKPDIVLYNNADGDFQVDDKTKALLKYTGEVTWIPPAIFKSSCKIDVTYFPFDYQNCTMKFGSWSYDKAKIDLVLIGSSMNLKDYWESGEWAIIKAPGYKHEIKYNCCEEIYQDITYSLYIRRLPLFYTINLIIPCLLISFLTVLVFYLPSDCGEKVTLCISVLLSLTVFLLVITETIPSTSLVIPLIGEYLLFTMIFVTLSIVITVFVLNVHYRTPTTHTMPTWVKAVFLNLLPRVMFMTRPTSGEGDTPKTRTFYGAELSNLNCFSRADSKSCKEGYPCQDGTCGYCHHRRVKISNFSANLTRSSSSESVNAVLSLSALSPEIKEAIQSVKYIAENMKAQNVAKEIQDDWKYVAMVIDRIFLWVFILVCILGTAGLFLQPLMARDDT
UniProt P12390, whole entry, looked up: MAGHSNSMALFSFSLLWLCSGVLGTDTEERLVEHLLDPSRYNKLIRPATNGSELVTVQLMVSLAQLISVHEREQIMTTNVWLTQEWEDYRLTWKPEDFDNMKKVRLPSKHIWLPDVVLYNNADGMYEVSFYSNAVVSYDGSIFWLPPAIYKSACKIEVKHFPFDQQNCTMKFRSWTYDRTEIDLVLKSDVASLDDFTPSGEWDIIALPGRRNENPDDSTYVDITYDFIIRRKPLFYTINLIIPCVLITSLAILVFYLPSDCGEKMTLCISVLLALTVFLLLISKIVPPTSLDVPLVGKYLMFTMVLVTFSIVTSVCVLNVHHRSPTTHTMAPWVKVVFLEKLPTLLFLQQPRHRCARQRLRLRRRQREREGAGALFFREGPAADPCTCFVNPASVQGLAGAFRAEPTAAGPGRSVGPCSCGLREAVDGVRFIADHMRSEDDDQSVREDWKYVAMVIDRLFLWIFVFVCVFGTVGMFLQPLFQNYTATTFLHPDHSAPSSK
UniProt P12390, 25-500 limits assumed: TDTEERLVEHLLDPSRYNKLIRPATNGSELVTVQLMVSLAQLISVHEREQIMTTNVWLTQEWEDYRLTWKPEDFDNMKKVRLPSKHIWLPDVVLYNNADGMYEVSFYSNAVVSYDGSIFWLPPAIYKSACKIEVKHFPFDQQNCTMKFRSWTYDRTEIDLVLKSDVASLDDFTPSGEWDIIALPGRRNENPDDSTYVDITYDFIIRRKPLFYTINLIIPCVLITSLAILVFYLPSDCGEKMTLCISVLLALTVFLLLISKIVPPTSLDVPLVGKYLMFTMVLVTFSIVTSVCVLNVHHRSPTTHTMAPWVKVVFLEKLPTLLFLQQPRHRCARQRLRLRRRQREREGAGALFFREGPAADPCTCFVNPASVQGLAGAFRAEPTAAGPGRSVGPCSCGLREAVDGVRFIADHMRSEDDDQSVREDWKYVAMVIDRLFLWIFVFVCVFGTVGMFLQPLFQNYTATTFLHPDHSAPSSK
UniProt P12391: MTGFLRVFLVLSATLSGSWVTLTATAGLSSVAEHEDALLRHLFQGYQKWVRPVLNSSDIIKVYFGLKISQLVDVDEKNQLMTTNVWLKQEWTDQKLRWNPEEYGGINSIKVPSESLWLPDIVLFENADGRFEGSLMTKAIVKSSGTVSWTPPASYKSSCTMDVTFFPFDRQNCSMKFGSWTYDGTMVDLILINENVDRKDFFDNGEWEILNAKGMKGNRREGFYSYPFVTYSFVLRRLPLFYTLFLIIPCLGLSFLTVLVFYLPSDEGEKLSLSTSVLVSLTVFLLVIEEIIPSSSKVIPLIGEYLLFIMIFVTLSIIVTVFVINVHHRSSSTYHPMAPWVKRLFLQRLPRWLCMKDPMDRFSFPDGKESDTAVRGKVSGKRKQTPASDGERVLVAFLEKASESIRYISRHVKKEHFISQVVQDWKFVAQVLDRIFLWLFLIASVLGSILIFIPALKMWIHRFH
UniProt P43143, whole entry, looked up: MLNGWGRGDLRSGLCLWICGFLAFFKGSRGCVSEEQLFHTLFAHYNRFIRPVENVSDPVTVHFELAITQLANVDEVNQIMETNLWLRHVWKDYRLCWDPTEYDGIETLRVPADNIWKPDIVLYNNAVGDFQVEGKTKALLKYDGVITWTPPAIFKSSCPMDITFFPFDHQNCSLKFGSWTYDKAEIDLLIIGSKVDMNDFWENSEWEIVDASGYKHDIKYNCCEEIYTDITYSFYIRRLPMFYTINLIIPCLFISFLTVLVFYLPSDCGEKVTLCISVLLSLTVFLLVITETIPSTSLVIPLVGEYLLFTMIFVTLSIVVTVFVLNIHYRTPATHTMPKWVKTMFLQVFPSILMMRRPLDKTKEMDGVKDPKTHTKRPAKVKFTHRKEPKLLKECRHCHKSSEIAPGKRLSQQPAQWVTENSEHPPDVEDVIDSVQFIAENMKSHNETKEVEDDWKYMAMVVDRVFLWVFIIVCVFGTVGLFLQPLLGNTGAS

Experiments:
[1] = molecular target: rat α6/α3β2β3 nAChR (Rattus norvegicus, UniProt P04757+P12390+P12391+P43143); settings: for α6/α3β2β3 over the other nAChRs tested up to 10 µM
[2] = molecular target: rat α3β2 nAChR (Rattus norvegicus, UniProt P04757+P12390)

`CC(C)C[C@@H]1NC(=O)[C@H](CC(=O)O)NC(=O)[C@H](CO)NC(=O)[C@H](Cc2c[nH]cn2)NC(=O)[C@H](CCC(N)=O)NC(=O)[C@H](C(C)C)NC(=O)[C@H](CCC(N)=O)NC(=O)[C@@H]2CSSC[C@H](N)C(=O)N[C@@H](CSSC[C@@H](C(=O)O)NC1=O)C(=O)N[C@@H](CO)C(=O)N[C@@H](CC(N)=O)C(=O)N1CCC[C@H]1C(=O)N[C@@H](C)C(=O)N2` [Δ-CIC] was tested, and the “selectivity profile (in words)” value [1] was “high selectivity profile”, the “selectivity profile (in words)” value ([2]; for α3β2 over the other nAChRs tested up to 10 µM) was “high selectivity profile” and the “potency loss (IC50 ratio) versus α-conotoxin MII” value ([2]; α3β2, fold higher IC50 / less potent than MII (MII from literature)) was 1000 fold.
